Measured values taken from publication PMC3203990 (The FEBS journal, 2011).

System: O=[N+]([O-])c1ccc(OP(=O)(O)O)cc1
Test: purified protein
Conditions: pH 5.5; 25.0 °C

Q: Which Km does the source give for “FtCCAP (Francisella tularensis class C acid phosphatase) (Francisella tularensis subsp. tularensis SCHU S4)” here?
A: 560 ± 40 µM
